# Measured values as given in patent publication US5064946A, “Therapeutic nucleosides” (priority 1987, dated 1991).
# Tests used:
# [1] = system: HIV; assay: AZT/Interferon combinations vs. HIV in vitro in PBMC: reverse transcriptase (RT) activity of supernatants; format: cell-based; details: AZT 0; for mean reverse transcriptase value: Experiment 2-Day 10
# [2] = system: HIV p24; assay: AZT/Interferon combinations vs. HIV in vitro in PBMC: HIV p24 antigen by radioimmunoassay; format: cell-based; details: Experiment 4-Day 14, AZT 0
substance,measurement,setting,value
rIFNαA: recombinant α interferon (rIFNαA),mean reverse transcriptase value,[1]; rIFNαA 8 U/ml,173 cpm/10^6 cells × 10^3
same,mean reverse transcriptase value,[1]; rIFNαA 16 U/ml,150 cpm/10^6 cells × 10^3
same,mean reverse transcriptase value,[1]; rIFNαA 32 U/ml,193 cpm/10^6 cells × 10^3
same,mean reverse transcriptase value,[1]; rIFNαA 64 U/ml,169 cpm/10^6 cells × 10^3
same,mean reverse transcriptase value,[1]; rIFNαA 128 U/ml,151 cpm/10^6 cells × 10^3
same,mean RT value,"[1]; Experiment 3-Day 13, rIFNαA 16 U/ml",143 cpm/10^6 cells × 10^3
same,mean RT value,"[1]; Experiment 3-Day 13, rIFNαA 32 U/ml",117 cpm/10^6 cells × 10^3
same,mean RT value,"[1]; Experiment 3-Day 13, rIFNαA 64 U/ml",117 cpm/10^6 cells × 10^3
same,mean RT value,"[1]; Experiment 3-Day 13, rIFNαA 128 U/ml",130 cpm/10^6 cells × 10^3
same,mean RT value,"[1]; Experiment 4-Day 11, rIFNαA 32 U/ml",5 cpm/10^6 cells × 10^3
same,mean RT value,"[1]; Experiment 4-Day 11, rIFNαA 64 U/ml",4 cpm/10^6 cells × 10^3
same,mean RT value,"[1]; Experiment 4-Day 11, rIFNαA 128 U/ml",2 cpm/10^6 cells × 10^3
same,HIV p24,[2]; IFNαA 32 U/ml,100-200 ng protein/ml
same,HIV p24,[2]; IFNαA 64 U/ml,50-100 ng protein/ml
same,HIV p24,[2]; IFNαA 128 U/ml,25-30 ng protein/ml
